From patent US9663478B2, “Benzotriazine oxides as drugs targeting Mycobacterium tuberculosis” (priority 2011, dated 2017) come the findings set out here.

The data set relates to Vero cells. Briefly: Cytotoxicity against Vero cells (Cell Titer-Glo). The note with it: for SI: ratio of the CC50/TB-MIC, Tables P1-P3; for SI (CC50/MIC): Tables 1-4 and text. Background: In ATP-based viability assays light output follows the ATP content of the culture.

With `CCC(C)Nc1n[n+]([O-])c2ccccc2[n+]1[O-]` (centres unmarked) [SRI-012262], the SI is 8.6.
Turning to `Cc1cc2c(cc1C)[n+]([O-])c(NC1CCC1)n[n+]2[O-]` [SRI-012459], the SI stood at 34.9.
For the compound `CO[C@H]1/C=C/O[C@@]2(C)Oc3c(C)c(O)c4c(O)c(c(/C=N/N5CCN(C)CC5)c(O)c4c3C2=O)NC(=O)/C(C)=C\C=C\[C@H](C)[C@H](O)[C@@H](C)[C@@H](O)[C@@H](C)[C@H](OC(C)=O)[C@@H]1C` [RIF, Rifampin, reference compound], the “SI (CC50/MIC)” value is reported as more than 15000.
As to `[O-][n+]1nc(NC2CCCC2)[n+]([O-])c2ccc(F)cc21` [Compound 15ae, 3-(cyclopentylamino)-7-fluorobenzo[e][1,2,4]triazine 1,4-dioxide], the “SI (CC50/MIC)” value came out at 7.3.
For `[O-][n+]1nc(NC2CCCCCC2)[n+]([O-])c2ccc(F)cc21` [SRI-012282], the SI was less than 4.
As to `CC(C)C(C)Nc1n[n+]([O-])c2ccccc2[n+]1[O-]` (centres unmarked) [SRI-012267], the SI is given as 4.2.
Turning to `CC(C)CC(C)Nc1n[n+]([O-])c2cc(F)ccc2[n+]1[O-]` (centres unmarked) [SRI-012281], the SI is less than 4.
As for `CCC(COC)Nc1n[n+]([O-])c2ccccc2[n+]1[O-]` (centres unmarked) [Compound 8i, 3-((1-methoxybutan-2-yl)amino)benzo[e][1,2,4]triazine 1,4-dioxide], the “SI (CC50/MIC)” value is reported as more than 5.0.
With `[O-][n+]1nc(N[C@@H]2C[C@H]3CC[C@@H]2C3)[n+]([O-])c2ccc(F)cc21` [Compound 15am, 3-((1R,2R,4S)-bicyclo[2.2.1]heptan-2-ylamino)-7-fluorobenzo[e][1,2,4]triazine 1,4-dioxide], the “SI (CC50/MIC)” value is reported as less than 4.0.
`[O-][n+]1nc(NC2CCC2)[n+]([O-])c2ccc(F)cc21` [SRI-012276]: the SI turned out to be 8.0.
`[O-][n+]1nc(NC2CCC2)[n+]([O-])c2ccc(Cl)cc21` [Compound 15bd, 7-chloro-3-(cyclobutylamino)benzo[e][1,2,4]triazine 1,4-dioxide]: the “SI (CC50/MIC)” value was 10.
With `COc1cc2c(cc1C)[n+]([O-])nc(NC1CCC1)[n+]2[O-]` [Compound 15gd, 3-(cyclobutylamino)-6-methoxy-7-methylbenzo[e][1,2,4]triazine 1,4-dioxide], the “SI (CC50/MIC)” value is more than 20.
Same read-out and setting: for `Cc1cccc2c1[n+]([O-])c(NC1CCCC1)n[n+]2[O-]` [Compound 15ee, 3-(cyclopentylamino)-5-methylbenzo[e][1,2,4]triazine 1,4-dioxide] the value was 12.
`[O-][n+]1nc(NC2CCCC2)[n+]([O-])c2ccc(F)cc21` [SRI-012277]: the SI turned out to be 7.3.
The same measure, in the same setting: for `CCNc1n[n+]([O-])c2cc(F)ccc2[n+]1[O-]` [SRI-012284] the value was 7.3.
Consider `Cc1cccc2c1[n+]([O-])c(NC1CCC1)n[n+]2[O-]` [Compound 15ed, 3-(cyclobutylamino)-5-methylbenzo[e][1,2,4]triazine 1,4-dioxide], for which the “SI (CC50/MIC)” value turned out to be 70.
In the case of `[O-][n+]1nc(N[C@@H]2C[C@H]3CC[C@@H]2C3)[n+]([O-])c2ccc(Br)cc21` [Compound 15cm, 3-((1R,2R,4S)-bicyclo[2.2.1]heptan-2-ylamino)-7-bromobenzo[e][1,2,4]triazine 1,4-dioxide], the “SI (CC50/MIC)” value was found to be 2.6.
In the case of `CCNc1n[n+]([O-])c2cc3c(cc2[n+]1[O-])CCC3` [SRI-012286], the SI is on record as 28.8.
On the same count and under the same terms, for `CCC(COC)Nc1n[n+]([O-])c2cc(F)ccc2[n+]1[O-]` (centres unmarked) [SRI-012278] the value was 1.3.
For the compound `NNC(=O)c1ccncc1` [INH, Isoniazid, reference compound], the “SI (CC50/MIC)” value was more than 830.
As for `[O-][n+]1nc(NC2[C@H]3C[C@@H]4C[C@@H](C[C@H]2C4)C3)[n+]([O-])c2ccccc21` (some centres unmarked) [SRI-012269], the SI is reported as 2.9.
Consider `[O-][n+]1nc(NC2CCCCCC2)[n+]([O-])c2ccccc21` [SRI-012256], for which the SI came to 3.2.
Consider `[O-][n+]1nc(NC2CC2)[n+]([O-])c2ccc(F)cc21` [SRI-012274], for which the SI turned out to be 11.4.
